Target: HCV NS5B RNA-dependent RNA polymerase (1b-BKΔ55) (Hepatitis C virus genotype 1b, UniProt P26663)
Details: read-out: NTP Ki; nucleoside triphosphate analog; Ki from NS5B IC50 by Cheng-Prusoff

Protein sequences, listed by entry. Tags and fused reporters are not part of them. Lines headed by an entry give the natural chain unless they say otherwise; changes in a name come on top. Residues count along the entry.
UniProt P26663, 2420-2955 limits assumed, stated change not applied: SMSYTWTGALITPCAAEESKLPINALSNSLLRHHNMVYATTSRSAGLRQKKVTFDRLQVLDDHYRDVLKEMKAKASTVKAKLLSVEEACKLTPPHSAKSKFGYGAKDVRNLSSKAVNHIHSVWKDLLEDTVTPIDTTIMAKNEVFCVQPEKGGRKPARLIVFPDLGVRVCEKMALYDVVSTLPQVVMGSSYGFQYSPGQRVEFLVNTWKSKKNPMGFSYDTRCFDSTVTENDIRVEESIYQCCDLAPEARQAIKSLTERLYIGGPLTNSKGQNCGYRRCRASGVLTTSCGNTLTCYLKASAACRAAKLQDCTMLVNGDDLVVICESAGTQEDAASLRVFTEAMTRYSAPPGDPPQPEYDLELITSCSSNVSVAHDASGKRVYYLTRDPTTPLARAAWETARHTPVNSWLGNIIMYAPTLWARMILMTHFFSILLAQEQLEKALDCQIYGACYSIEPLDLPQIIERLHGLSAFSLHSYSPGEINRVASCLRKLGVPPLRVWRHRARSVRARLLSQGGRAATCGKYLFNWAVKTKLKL

Compound `CC(C)OC(=O)[C@H](C)NP(=O)(OC[C@H]1O[C@@H](n2ccc(=O)[nH]c2=O)[C@](C)(F)[C@@H]1O)Oc1ccccc1` (stereo partly shown) has a Ki of 1500 nM.

With `CC(C)OP1(=O)OC[C@H]2O[C@@H](n3ccc(=O)[nH]c3=O)[C@](C)(N=[N+]=[N-])[C@@H]2O1` (stereo partly shown) the Ki was 9000 nM.

Work on `CC(C)OC(=O)[C@H](C)NP(=O)(OC[C@H]1O[C@@H](n2ccc(N)nc2=O)[C@](C)(N=[N+]=[N-])[C@@H]1O)Oc1ccccc1` (stereo partly shown) [Compound 22] yielded a Ki of 300 nM.

`CCOC(=O)[C@H](C)NP(=O)(OC[C@H]1O[C@@H](n2cnc3c(OC)nc(N)nc32)[C@](C)(N=[N+]=[N-])[C@@H]1O)Oc1ccccc1` (stereo partly shown) was tested, and the Ki was 30 nM.

Source: patent US9156872B2, “2′-azido substituted nucleoside derivatives and methods of use thereof for the treatment of viral diseases” (priority 2011, dated 2015)
